# Genome-wide point mutation profile of HIV-1: Vpr

Reference: Al-Mawsawi et al. 2014, doi:10.1186/s12977-014-0124-6.

Protein: Vpr of HIV-1 NL4-3, numbered from its first residue. The source prints no sequence; the chain below is taken from UniProt P12520, a closely related isolate, and fits the source at the 71 positions it covers.
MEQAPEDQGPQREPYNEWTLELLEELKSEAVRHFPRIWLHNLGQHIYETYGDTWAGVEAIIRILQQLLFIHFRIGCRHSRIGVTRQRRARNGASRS
"Other frame" gives the effect on an overlapping gene as the source lists it; other overlaps (genes, RNA elements) are not shown.

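Random point mutant libraries of HIV-1 NL4-3, one for each of seven fragments, were passaged in CEM T lymphocytes. Sequencing gave the RC index: frequency after two rounds over frequency in the input plasmid.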

RC index: lower means poorer replication; rough cut-offs are 0.1 (lethal) and 0.2 (tolerated).
A change reads original residue, position, new residue.
Input reads are the counts in the plasmid library.
Since each clone held several changes (about five per kb), neutral changes can read low.
The authors read an index above 1 as above wild type (1.9% of all changes in the genome).
Nucleotide positions follow pNL4-3.

| substitution | base | other frame | input reads | RC |
|---|---|---|---|---|
| P5S | C5571T | Vif silent | 273 | 0.0580 |
| E6K | G5574A | Vif silent | 146 | 0.878 |
| G9R | G5583A | Vif silent | 73 | 0.780 |
| E13K | G5595A | Vif silent | 324 | 0.371 |
| N16Y | A5604T | Vif silent | 778 | 0.0577 |
| W18R | T5610C | Vif silent | 677 | 0.0530 |
| L22I | C5622A | none | 107 | 0.206 |
| L22V | C5622G | none | 116 | 0.0345 |
| L22F | C5622T | none | 467 | 0.120 |
| L23S | T5626C | none | 307 | 0.0913 |
| L23F | A5627T | none | 476 | 0.0421 |
| E24A | A5629C | none | 77 | 0.0520 |
| E24V | A5629T | none | 281 | 0.0499 |
| E24D | G5630T | none | 436 | 0.0689 |
| E25G | A5632G | none | 376 | 0.0479 |
| L26F | C5634T | none | 399 | 0.110 |
| K27E | A5637G | none | 310 | 0.116 |
| K27M | A5638T | none | 511 | 0.0274 |
| S28N | G5641A | none | 299 | 0.241 |
| S28I | G5641T | none | 293 | 0.0752 |
| E29K | G5643A | none | 168 | 1.27 |
| E29D | A5645T | none | 129 | 0.0931 |
| V31D | T5650A | none | 503 | 0.0438 |
| V31G | T5650G | none | 50 | 0.200 |
| H33N | C5655A | none | 73 | 0.0823 |
| H33Q | T5657A | none | 385 | 0.0364 |
| F34I | T5658A | none | 472 | 0.0763 |
| F34Y | T5659A | none | 485 | 0.0495 |
| F34L | T5660A | none | 271 | 0.0665 |
| P35H | C5662A | none | 423 | 0.0994 |
| R36T | G5665C | none | 44 | 0.136 |
| I37L | A5667T | none | 391 | 0.0256 |
| I37K | T5668A | none | 278 | 0.0432 |
| W38C | G5672T | none | 131 | 0.107 |
| L39F | C5673T | none | 561 | 0.0464 |
| H40N | C5676A | none | 175 | 0.183 |
| H40Y | C5676T | none | 228 | 0.0702 |
| N41I | A5680T | none | 343 | 0.0350 |
| N41K | C5681A | none | 105 | 0.0572 |
| L42S | T5683C | none | 341 | 0.106 |
| G43R | G5685A | none | 280 | 0.701 |
| Q44K | C5688A | none | 57 | 0.211 |
| Q44P | A5689C | none | 69 | 0.0580 |
| Q44R | A5689G | none | 379 | 0.0739 |
| Q44H | A5690T | none | 522 | 0.0614 |
| H45Y | C5691T | none | 395 | 0.147 |
| H45L | A5692T | none | 392 | 0.0460 |
| I46V | A5694G | none | 174 | 0.0345 |
| I46T | T5695C | none | 247 | 0.316 |
| I46S | T5695G | none | 36 | 0.167 |
| Y47H | T5697C | none | 186 | 0.194 |
| Y47C | A5698G | none | 272 | 0.0368 |
| E48D | A5702T | none | 220 | 0.0728 |
| T49S | A5703T | none | 262 | 0.0306 |
| T49I | C5704T | none | 378 | 0.778 |
| Y50C | A5707G | none | 194 | 0.268 |
| G51R | G5709A | none | 277 | 0.304 |
| G51E | G5710A | none | 176 | 0.660 |
| D52N | G5712A | none | 222 | 0.424 |
| D52G | A5713G | none | 256 | 0.0704 |
| T53N | C5716A | none | 172 | 0.0698 |
| W54R | T5718A | none | 440 | 0.0227 |
| W54G | T5718G | none | 114 | 0.0351 |
| G56E | G5725A | none | 214 | 0.374 |
| V57M | G5727A | none | 310 | 0.116 |
| V57L | G5727C | none | 34 | 0.118 |
| E58G | A5731G | none | 474 | 0.0676 |
| F69S | T5764C | none | 312 | 0.0986 |
| I70F | A5766T | none | 182 | 0.0597 |